Assay results published in paper PMC5630374.

How the values were obtained:
[1] = tested on: His-CalR (Vibrio parahaemolyticus RIMD2210633); assay: EMSA; details: 10 mM Tris-HCl pH 7.5, 50 mM NaCl, 1 mM MgCl2, 0.5 mM EDTA, 0.5 mM DTT, room temperature; recombinant protein; residues 1-319; protein details: 6xHis (pET28a); probe letters rebuilt from the primers and the genome
[2] = tested on: His-CalR (Vibrio parahaemolyticus RIMD2210633); assay: DNase I footprinting; details: 10 mM Tris-HCl pH 7.5, 50 mM NaCl, 1 mM MgCl2, 0.5 mM EDTA, 0.5 mM DTT, room temperature, recombinant protein, residues 1-319, protein details: 6xHis (pET28a), label: FAM or HEX, probe letters rebuilt from the primers and the genome

Sequence | binding result [1] | binding result [2] | further results
ATTGTCCGTCAAATGCAGTTCAGGCAAGCCTATTTGATGAGCAAACTTCTGTAAAACCTCATCGATAGTTTGGCGTGCTGACATAGAAACAGTCCTTTTGAGAATTTTATCGGGAAACATATTCGATATCGTGGGGTGTGTTTATCAATTTTGGTTGTTAGTTATTATATTTTGGCCGGAAACCCAGAATTGACTCCTTGCTTCTAATCTTACAAATGAGTGCTGGTGCATATAAAGATTAACGGTTATTAAATTCTATTATGGTGGGATTTTGGTTTATATCGACAAGCGATGAAGAATTAGAATTGTGTTATCTTAAAAATTAAATACTATGTTAATTACGTGTTGTACGTGGAACGTTATTGCTGTCCATCTGTAGAATAAATATAAGCCGAAAATTTAAACGTACACATAAGAATTTGTGTAAAAATAAATCATAATAAGACGATAAAAATAATTTATGGGAGCCTAAATGAAAAGCAGTAAGTGGGCCGGTCTTATCGGTTTAATGTTATTGACTGGATGCGCTCAGTCCGTGGGGACTTCACAGCCATTTTCCGTTCAGAGCCAAGCGAATGTATATG (double strand) [exsB promoter, EMSA fragment] | binds | – | –
CAGATTGCTGAATATCGGTGATGTATGAGAAATCGTTCAATGTAAAAAATATGCGCAATGATTGATGCTGGGAGAATAGAAAGGATGAGGTGGTATTTATAGTGAATATTGGTCGGGAGTTTTTAGAAAACTGAAAACGCCCTAAAAAAACACGTCTGATTTTGACAGCCTGATAAAAACGCACTTCATATAATTCGCTTGTATTGTACGAAAGGAGTGCAAGTGAATGAGTATTATCAATAGTCAGATAGCAACCAACACCAAGTTTGATGCATCGGTCCGGAATGGATTGGAATCGTCTCGTGCGGACAGTGCCGTAAAAGGCAGTTATCGAGGTGAGACCGTGCGCGTGCACAACGCCACTCAATCGCTT (double strand) [vp1667 promoter, EMSA fragment] | binds | – | –
CAGGAAACAGCTATGACCAAGCCAATGAGCGTCAGGCGATCATCCTCAGCACGCACAGTGATTGCCGTGTCTTGGTCAATCAAAAGATGACAGCAATCGTCGCCATCAAAAAACAGTTGTTCTATTTGGCAACGGTGAGCAAAATCCGTCATCAAAGCGGTAATAAATCCATTAGCCATTTGAATGAATAATCCTATAGTGCTTGTTACGAATTCGGCAGACGAGTCATGAAAACAGAGTGACCCAGAGCCGTTTTGATGCTGTTATTTTTCATCATTCGGCGCGATTAATATGCTAAAGATGGTCGGATTTTTTTCGTTTTAAGACGTTTGAAAACAACAAAGCTCAGCAATGTGCTGAGCTTTGTGTTCGATTGATTTGGCGGTGATGCCCTACTCTGGTGACTGGCCGTCGTTTTAC (double strand) [vp1687 promoter, footprint fragment] | – | binds | –
CAGGAAACAGCTATGACCGAGCGAATTACTATTTGGATCAAAGGTAAACCTTTGAGCAAGTAGAAATTTGGTGCCGATGTTAGTCATTTAGTTCTTCTTAGATGGATGATGTTGTAATTATGGTGATTTATATCACAAAATTACGTTTGCGCATGGGAGATACGCGACGTTTTAGATGCTTTTAGGGGGGTAGGATAATTAAATTTTTCTAAAAAAACACCGTTTTTAGCAATATTGACCTTGAATTTACATTTGTCAGCCACATGTTAAATGACATCTTAGTGTGGTGATTTCATGGGGCTAAATCACAAAGTCGTCCCTGAAAACTGGCCGTCGTTTTAC (double strand) [toxR promoter, footprint fragment] | – | – | binding result ([2]; 5.52-11.04 pmol protein): binds
CGAGCGAATTACTATTTGGATCAAAGGTAAACCTTTGAGCAAGTAGAAATTTGGTGCCGATGTTAGTCATTTAGTTCTTCTTAGATGGATGATGTTGTAATTATGGTGATTTATATCACAAAATTACGTTTGCGCATGGGAGATACGCGACGTTTTAGATGCTTTTAGGGGGGTAGGATAATTAAATTTTTCTAAAAAAACACCGTTTTTAGCAATATTGACCTTGAATTTACATTTGTCAGCCACATGTTAAATGACATCTTAGTGTGGTGATTTCATGGGGCTAAATCACAAAGTCGTCCCTGAAAAAGCCTGTTAGTTTAGATGTTATGGAGCACACATGAGCGAAACCGTATCTCAAAATAAAGAAACTCGTGGTTTTCAATCAGAAGTAAAACAACTACTTCATTTAATGATCCATTCTCTTTATTCCAATAAAGAGATCTTTTTGCGCGAGCTGATTTCTAACGCATCAGATGCATCAGACAAATTGCGTTTTCAGGCACTTTCGAATCCAGATTTATATGAAGGTAACGCAGATCTTGGCGTTAAGCTGTCATTTGATGAAAGTGCAAATACCTTAACGAT (double strand) [toxR promoter, EMSA fragment] | binds | – | –
GCATTATTGACGCCAGTATCGATGGACAGATTCAGGCGTTAAAGCAAGCGATGGTGAAACAACTCAGTGAGCGGAAAATGACGTCACCAGAGTAGGGCATCACCGCCAAATCAATCGAACACAAAGCTCAGCACATTGCTGAGCTTTGTTGTTTTCAAACGTCTTAAAACGAAAAAAATCCGACCATCTTTAGCATATTAATCGCGCCGAATGATGAAAAATAACAGCATCAAAACGGCTCTGGGTCACTCTGTTTTCATGACTCGTCTGCCGAATTCGTAACAAGCACTATAGGATTATTCATTCAAATGGCTAATGGATTTATTACCGCTTTGATGACGGATTTTGCTCACCGTTGCC (double strand) [vp1687 promoter, EMSA fragment] | binds | – | –
GTAAAACGACGGCCAGTCAGATTGCTGAATATCGGTGATGTATGAGAAATCGTTCAATGTAAAAAATATGCGCAATGATTGATGCTGGGAGAATAGAAAGGATGAGGTGGTATTTATAGTGAATATTGGTCGGGAGTTTTTAGAAAACTGAAAACGCCCTAAAAAAACACGTCTGATTTTGACAGCCTGATAAAAACGCACTTCATATAATTCGCTTGTATTGTACGAAAGGAGTGCAAGTGAATGAGTATTATCAATAGTCAGATAGCAACCAACACCAAGTTTGATGCATCGGTCCGGAATGGATTGGAATCGTCTCGTGCGGACAGTGCCGTAAAAGGCAGTTATCGAGGTGAGACCGTGCGCGTGCACAACGCCACTCAATCGCTTGTCATAGCTGTTTCCTG (double strand) [vp1667 promoter, footprint fragment] | – | binds | –
GTAAAACGACGGCCAGTCCGTTGGTTATTGATAGGTGGGGTAAATGTGTTTCGATGTTTGTTCTTAGTCTTATCAATTTGCTAAATACATACTCAAAGAGTGTGGTTTTAGTTGTTTTATAGTTTTTTATGTTTTTTTCAATTTGTTGATTTTAAATGATTAAATACCTAAGTGGCTAAAATTTAGTGATTAAATATCAATCTAGTTGCTAAACCCCAATCGATTAGTTGATAGTACGCTTCGAGCCGGAAGTATCCGGACGATAAATATAATAAAAATTAGGTTTCTATTCGTAAAAATGATTCGAATCCAGCCGCCGTCTTTTGTGCGAGATGGGATTCTATTCGTTATGAATTCATTGAAACAATTTGACGATTACAAAAGAGGCGCACTCAATGTTAGAGAAGAAAGATGCGATGAGCGCAATTGCTAGCTACCGTATGGAAAGCACTTTGCGTGGTGTAGATTTGAACCTACTGACTGTATTTGATGCTGTGATGCAAGAGCAAAATATCACTCGTGCAGCACACAACTTAGGCATGTCTCAACCGGCAGTAAGTAATGCCGTGGGTCATAGCTGTTTCCTG (double strand) [calR promoter, CalR footprint fragment] | – | binds | –
